Measured values from several laboratories, pooled; numbers as filed in NIAID ChemDB.

All rows: whole-cell or culture tests; organism: Mycobacterium tuberculosis

A number after MIC or MFC names an inhibition level or a share of isolates. Neighbouring rows are from separate reports. ECn is the concentration giving n% inhibition of infection, replication or growth. Inhibition is in % at the dose shown (toxicity tests: loss of growth or viability). An empty or dashed field is not shown. MIC bound: limit read from a one-dose screen.

structure | tested at | strain or isolate | cells | changes | read-out | method | value
CCNC(=O)c1c(NC(=O)c2c(F)c(F)c(F)c(F)c2F)sc2c1CCN(CC)C2 |  | H37Rv |  | katG Y155 truncation mutant | EC90 | turbidity | 11 µM
CCCCCCCCCN1C(=O)C=CC1=O |  | Clinical isolate (isoniazid-resistant) |  |  | MIC |  | ≤20 µg/mL
CCN1CCc2c(sc(NC(=O)c3c(F)c(F)c(F)c(F)c3F)c2C#N)C1 |  |  |  |  | EC90 | low oxygen | 27 µM
CCN=c1cc2n(-c3ccc(Cl)cc3)c3ccccc3nc-2cc1Nc1ccc(Cl)cc1 |  | 2230 (SM INH RIF-RES) |  |  | MIC |  | 0.06 µg/mL
Nc1sc(-c2ccccc2)cc1C(=O)Nc1ccccc1 |  | H37Rv |  |  | MIC | resazurin | 100 µg/mL
C/C(=C/CO)CCC[C@H](C)CCC[C@H](C)CCCC(C)C |  | H37Rv |  |  | MIC |  | 2 µg/mL
O=c1oc2ccc(Br)cc2cc1-c1cs/c(=N/N=C/c2ccc(Cl)c(Cl)c2)n1C1CCCCC1 | 6.25 µg/mL | H37Rv |  |  | inhibition |  | 4%
CCc1nc2ccc(Cl)cn2c1C(=O)NCc1ccc(N2CCC3(CC2)OC[C@H](C)O3)c(F)c1 |  | H37Rv |  |  | MIC90 | resazurin | <2 µM
CN(C)CCCN1c2ccc3ccccc3c2Sc2cccc(Cl)c21 | 12.5 µg/mL | H37Rv |  |  | inhibition | BACTEC | 99%
COc1ccccc1/C=N/N=c1\scc(-c2cc3cc(Br)ccc3oc2=O)n1C1CCCCC1 |  | H37Rv |  |  | MIC |  | >6.25 µg/mL
C=C1C(=O)O[C@@H](CCCCCCCCCCCCC)[C@@H]1C(=O)O |  | H37Rv |  |  | MIC bound | BACTEC | >128 µg/mL
CO[C@H]1/C=C/O[C@@]2(C)Oc3c(C)c(O)c4c(O)c(c(/C=N/N5CCN(C)CC5)c(O)c4c3C2=O)NC(=O)/C(C)=C\C=C\[C@H](C)[C@H](O)[C@@H](C)[C@@H](O)[C@@H](C)[C@H](OC(C)=O)[C@@H]1C |  | Isolate L |  |  | MIC |  | >2 µg/mL
O=C1Nc2ccccc2Oc2ccccc21 |  | H37Rv |  |  | MIC bound | BACTEC | >12.5 µg/mL
CC(C)c1nc(C(=O)O)c(C(C)C)[nH]1 | 6.25 µg/mL | H37Rv |  |  | inhibition |  | 0%
CC1=C(C(=O)Nc2ccc([N+](=O)[O-])cc2)C(c2ccc(N(C)C)cc2)C(C(=O)Nc2ccc([N+](=O)[O-])cc2)=C(C)N1 |  | H37Rv |  |  | EC50 |  | <2.5 µg/mL
N#Cc1c(NC(=O)c2c(F)c(F)c(F)c(F)c2F)sc2c1CCOC2 |  |  |  |  | EC50 | low oxygen | 2.2 µM
CSc1ccc(C2C(C(=O)Nc3ccccc3Cl)=C(C)NC(C)=C2C(=O)Nc2ccccc2Cl)cc1 |  | H37Rv |  |  | EC50 |  | <2.5 µg/mL
Clc1ccc(Nc2cc3nc4ccccc4n(-c4ccc(Cl)c(Cl)c4)c-3cc2=NC2CCNCC2)cc1Cl |  | 2225 (SM INH RIF-RES) |  |  | MIC |  | 1 µg/mL
CO[C@H]1/C=C/O[C@@]2(C)Oc3c(C)c(O)c4c(O)c(c(/C=N/N5CCN(C/C=C/c6ccccc6)CC5)c(O)c4c3C2=O)NC(=O)/C(C)=C\C=C\[C@H](C)[C@H](O)[C@@H](C)[C@@H](O)[C@@H](C)[C@H](OC(C)=O)[C@@H]1C |  | 2275 (rifampin-resistant) |  |  | MIC |  | 0.4 µg/mL
CNC(=O)c1nnn(Cc2ccc(OC)cc2)c1Cl | 12.5 µg/mL | H37Rv |  |  | inhibition | BACTEC | 0%
CCOC(=O)c1c(N)sc2c1CCN(C(=O)OCc1ccccc1)C2 |  | H37Rv |  |  | MIC | resazurin | >100 µg/mL
CCc1nc2sc(C)cn2c1C(=O)NCc1ccc(S(F)(F)(F)(F)F)cc1 |  | H37Rv |  |  | MIC90 | resazurin | <2 µM
COc1ccc2c(c1)[n+]([O-])c(C#N)c(N)[n+]2[O-] | 6.25 µg/mL | H37Rv |  |  | inhibition |  | 97%
CC1=C(C(=O)Nc2ccccc2Cl)C(c2ccc(Cl)cc2Cl)C(C(=O)Nc2ccccc2Cl)=C(C)N1 | 2.5 µg/mL | H37Rv |  |  | inhibition |  | 11%
CO[C@@H](C)[C@@](O)(C(=O)OCC1=CCN2CCC[C@@H]12)C(C)C |  | H37Rv |  |  | MIC | BACTEC | ≥12.8 µg/mL
CCCCCCCCCN1C(=O)CC(CC)C1=O |  | H37Ra |  |  | MIC |  | ≤20 µg/mL
COc1ccc(/C=N/N=c2/scc(-c3cc4cc(Br)ccc4oc3=O)n2C2CCCCC2)cc1OC |  | H37Rv |  |  | EC50 |  | >6.25 µg/mL
C=C(C)[C@H]1CC[C@@]2(C)CC[C@@]3(C)[C@@H](CC[C@H]4[C@]5(C)CC[C@@H](OC(=O)c6ccccc6)C(C)(C)[C@H]5CC[C@@]43C)[C@H]12 | 12.8 µg/mL | H37Rv |  |  | inhibition | BACTEC | -2%
Cc1ccn2c(C(=O)NCc3ccc(N4CCC(c5ccc(C(F)(F)F)cc5)CC4)nc3)c(C)nc2c1 |  | H37Rv |  |  | MIC90 | resazurin | <2 µM
COC(=O)CCc1cnc(C2CCCCC2)[nH]1 |  | H37Rv |  |  | MIC |  | >6.25 µg/mL
CCCCCCCCCNC1CC(=O)N(CCCCCCCCC)C1=O |  | Clinical isolate (isoniazid-resistant) |  |  | MIC |  | ≤20 µg/mL
COc1cc(C2C(C(=O)Nc3ccc(Cl)cc3)=C(C)NC(C)=C2C(=O)Nc2ccc(Cl)cc2)cc(OC)c1OC | 2.5 µg/mL | H37Rv |  |  | inhibition |  | 94%
C/C=C1\C(=O)O[C@]23C=C[C@@H]4C(C(=O)OC)=CO[C@H](O[C@@H]12)[C@@H]43 |  | MDR2 clinical isolate |  |  | MIC | MTT | 2.5 µg/mL
Cc1cc(C)c(C(=O)C2Oc3ccccc3C2c2ccccc2)c(C)c1 | 12.5 µg/mL | H37Rv |  |  | inhibition | BACTEC | -7%
C=C1C(=O)O[C@@H]2C1[C@@H](OC(C)=O)C[C@H](C)[C@@H]1CCC(=O)[C@@]21C |  | H37Rv |  |  | MIC |  | 128 µg/mL
CCCCCCCCCN1C(=O)CC(SCCNC(=O)C(CC)CCCC)C1=O |  | H37Ra |  |  | MIC |  | ≤20 µg/mL
NNC(=O)c1ccncc1 |  | 131-4 |  |  | MIC |  | 0.05 µg/mL
Cc1ccn2c(C(=O)NCc3ccc(N4CCC(NCC5CC5)CC4)c(F)c3)c(C)nc2c1 |  | H37Rv |  |  | MIC90 | resazurin | <2 µM
CCOC(=O)c1c(NC(=O)c2c(F)c(F)c(F)c(F)c2F)sc2c1CCOC2 |  | ATCC 35822 |  |  | MIC | turbidity | 0.26 µM
COc1cc2c(cc1Cl)[n+]([O-])c(C#N)c(N)[n+]2[O-] | 6.25 µg/mL | H37Rv |  |  | inhibition |  | 99%
CO[C@H]1/C=C/O[C@@]2(C)Oc3c(C)c(O)c4c(=O)c(c5oc6cc(N7CCN(C(C)C)CC7)cc(=O)c6nc5c4c3=C2O)NC(=O)/C(C)=C\C=C\[C@H](C)[C@H](O)[C@@H](C)[C@@H](O)[C@@H](C)[C@H](OC(C)=O)[C@@H]1C |  | 35 (rifampin-resistant) |  |  | MBC |  | 0.4 µg/mL
C=C1C(=O)O[C@@H]2C[C@@]3(C)CCC=C(C)[C@@H]3C[C@H]12 |  | H37Rv |  |  | MIC |  | 128 µg/mL
CC(C)N=c1cc2n(-c3ccc(Cl)cc3)c3ccccc3nc-2cc1Nc1ccc(Cl)cc1 |  | MTB11 (EMB-resistant) |  |  | MIC |  | 1 µg/mL
CCc1nc2ccc(Cl)cn2c1C(=O)NCc1ccc(N2CCN(c3ccc(S(F)(F)(F)(F)F)cc3)CC2)cc1 |  | H37Rv |  |  | MIC90 | resazurin | <2 µM
N=C(N)SCc1ccc(C(=O)NN2C(=O)c3ccccc3C2=O)cc1 | 12.5 µg/mL | H37Rv |  |  | inhibition | BACTEC | 23%
CC(=O)Oc1ccccc1C(=O)Nc1ncc([N+](=O)[O-])s1 |  | Haarlem spoligotype 50 |  |  | MIC | visual reading | 20 µg/mL
CCOC(=O)c1c(NC(=O)c2c(F)c(F)c(F)c(F)c2F)sc2c1CCNC2=O |  | ATCC 35822 |  |  | EC90 | turbidity | 1.4 µM
CC(N=c1cc2n(-c3ccc(Cl)cc3)c3ccccc3nc-2cc1Nc1ccc(Cl)cc1)c1ccccc1 |  | H37Rv |  |  | MIC | BACTEC | 0.2 µg/mL
CCCCCCCCCN1C(=O)CC(C)(SCCN)C1=O |  | H37Rv |  |  | MIC |  | ≤20 µg/mL
CO[C@H]1/C=C/O[C@@]2(C)Oc3c(C)c(O)c4c(=O)c(c5oc6cc(N7CCN(CC(C)C)CC7)cc(=O)c6nc5c4c3=C2O)NC(=O)/C(C)=C\C=C\[C@H](C)[C@H](O)[C@@H](C)[C@@H](O)[C@@H](C)[C@H](OC(C)=O)[C@@H]1C |  | 2257 (rifampicin-susceptible) |  |  | MIC |  | 0.0078 µg/mL
Oc1nc2nc[nH]n2c1N=Nc1ccccc1 |  | H37Rv |  |  | MIC bound | BACTEC | >12.5 µg/mL
C=C1CC[C@@H](O)[C@]2(C)CC[C@H]3C(=C)C(=O)O[C@@H]3[C@@H]12 |  | H37Rv |  |  | MIC |  | 64 µg/mL
CCc1nc2ccc(Cl)cn2c1C(=O)NCc1ccc(N2CCCN(c3ccc(S(F)(F)(F)(F)F)cc3)CC2)c(F)c1 |  | H37Rv |  |  | MIC90 | resazurin | <2 µM
CN(C)C(=O)Nc1nc2cc(Cl)c(Cl)cc2[nH]1 |  | H37Rv |  |  | MIC | resazurin | >6.25 µg/mL
O=C1C=CC(=O)N1c1ccc(N2CCCCC2)cc1 |  | H37Rv |  |  | MIC |  | ≤20 µg/mL
Cc1nnc2sc(=S)[nH]n12 | 128 µg/mL | H37Rv |  |  | inhibition | BACTEC | 96%
O=C(N/N=C/c1c(F)c(F)c(F)c(F)c1F)c1cnc(C2C3CC4CC(C3)CC2C4)[nH]1 |  | H37Rv |  |  | MIC |  | >6.25 µg/mL
COc1ccc(C(CC(C)=O)c2c(O)c3ccccc3oc2=O)cc1OC | 12.5 µg/mL | H37Rv |  |  | inhibition | BACTEC | 11%
CCN1CCc2c(sc(NC(=O)c3c(F)c(F)c(F)c(F)c3F)c2C(=O)NC)C1 |  | ATCC 35822 |  |  | MIC | turbidity | 3.2 µM
CSC(=S)N/N=C(/C)c1ccco1 |  | CS-R |  |  | MIC |  | 1.6 µg/mL
CCCCCCCCCCN1C(=O)C=CC1=O |  | H37Rv |  |  | MIC |  | ≤20 µg/mL
N#Cc1c(N2CCN(c3ccc([N+](=O)[O-])cc3)CC2)[n+](=O)c2ccccc2n1[O-] |  | H37Rv |  |  | EC50 |  | <6.25 µg/mL
Cc1nc2ccc(Cl)cn2c1C(=O)NCc1ccc2c(c1)CCO2 |  | H37Rv |  |  | MIC90 | resazurin | <2 µM
O=c1oc2ccccc2cc1-c1cs/c(=N/N=C/c2ccc(Br)cc2)n1C1CCCCC1 | 6.25 µg/mL | H37Rv |  |  | inhibition |  | 0%
NNC(=O)c1c(O)ccc2ccccc12 |  | H37Rv |  |  | MIC bound | BACTEC | >12.5 µg/mL
N#Cc1nc2cc(Cl)ccc2nc1N1CCN(c2ccc([N+](=O)[O-])cc2)CC1 | 6.25 µg/mL | H37Rv |  |  | inhibition |  | 0%
CCCCCCCCN1C(=O)CC(C)C1=O |  | H37Ra |  |  | MIC |  | ≤20 µg/mL
O=C(N/N=C(\c1ccccc1)c1ccc(O)cc1O)c1ccncc1 |  | H37Rv | VERO |  | MIC | BACTEC | 0.003 µg/mL
CC1=CC(=O)N(c2ccc(N3CCCCC3)cc2)C1=O |  | H37Rv |  |  | MIC |  | ≤20 µg/mL
CCOC(=O)c1cnc[nH]1 |  | H37Rv |  |  | MIC |  | >6.25 µg/mL
CCOC(=O)c1c(N)sc2c1CCN(C(=O)OC(C)(C)C)C2 |  | H37Rv |  |  | MIC | resazurin | >100 µg/mL
C=C(C)C1CCC2(COS(=O)(=O)c3ccc(C)cc3)CCC3(C)C(CCC4C5(C)CCC(OC6CCCCO6)C(C)(C)C5CCC43C)C12 |  | H37Rv |  |  | MIC bound | BACTEC | >12.5 µg/mL
CC(C)=CCC1C(=O)C(CC=C(C)C)(CC=C(C)C)C(O)C(C(=O)C(C)C)C1O |  | Isolate O |  |  | MIC |  | 40.6 µg/mL
CCN(CC)CCCNc1nccc2c(C)c3c(cc12)c1cnccc1n3C |  | H37Rv |  |  | MIC bound | resazurin | >6.25 µg/mL
C/C1=C\[C@H]2OC(=O)[C@@H](C)[C@@H]2CCC2(C)O[C@@H]2CC1 |  | H37Rv |  |  | MIC |  | 128 µg/mL
Cc1ccn2c(C(=O)NCc3cccc(S(F)(F)(F)(F)F)c3)c(C)nc2c1 |  | H37Rv |  |  | MIC90 | resazurin | <2 µM
O=C1C2=Nc3ccccc3C(O)N2c2ccccc21 | 6.25 µg/mL | H37Rv |  |  | inhibition | resazurin | 99%
Cc1cc2c(cc1C)[n+](=O)c(C#N)c(Cl)n2[O-] |  | H37Rv |  |  | EC50 |  | <6.25 µg/mL
COC1C(OC(C)=O)CC(=O)OC(C)CC2OC2/C=C\C(=O)C(C)CC(CC=O)C1OC1OC(C)C(OC2CC(C)(O)C(OC(=O)CC(C)C)C(C)O2)C(N(C)C)C1O |  | H37Rv |  |  | MIC bound | BACTEC | >12.8 µg/mL
NNC(=O)CCc1cnc(C2CCCC2)[nH]1 | 6.25 µg/mL | H37Rv |  |  | inhibition |  | 20%